From PMC12171682, “Saarvienin A—A Novel Glycopeptide with Potent Activity against Drug‐Resistant Bacteria” (Angewandte Chemie (International Ed. in English), 2025)
In brackets after ≈: the same amount, converted by molar mass.

How the values were obtained:
Details in all cases: broth microdilution, cation-adjusted Mueller-Hinton Broth II, ~4 × 10⁵ CFU/mL, 37 °C, 24 h; mean of three independent biological replicates, each in technical triplicate
K. pneumoniae DSM 681 = test system: K. pneumoniae DSM 681
E. coli ATCC 25922 = test system: E. coli ATCC 25922
S. aureus ATCC 29213 = test system: S. aureus ATCC 29213
S. epidermidis DSM 28765 = test system: S. epidermidis DSM 28765
P. aeruginosa PA14 = test system: P. aeruginosa PA14
S. enterica DSM5569 = test system: S. enterica DSM5569

Compound	MIC, K. pneumoniae DSM 681 (K. pneumoniae DSM 681) [µg/mL]	MIC, E. coli ATCC 25922 (E. coli ATCC 25922) [µg/mL]	MIC, S. aureus ATCC 29213 (S. aureus ATCC 29213) [µg/mL]	MIC, S. epidermidis DSM 28765 (S. epidermidis DSM 28765) [µg/mL]	MIC, P. aeruginosa PA14 (P. aeruginosa PA14) [µg/mL]	MIC, S. enterica DSM5569 (S. enterica DSM5569) [µg/mL]
CN[C@@]1(C)C[C@H](O[C@@H]2[C@H](O)C[C@H](O[C@H]3[C@H](C)O[C@@H](O[C@H]4[C@H](O[C@H]5[C@H](C)O[C@@H](Oc6ccc(C[C@@H](O)C(=O)N[C@H]7CNC(=O)NC[C@@H](C(=O)N[C@H](Cc8ccccc8)C(=O)O)NC(=O)[C@H]([C@H](C)c8c[nH]c9ccc(Cl)cc89)NC7=O)cc6)C[C@]5(C)N)O[C@@H](C)[C@H](O)[C@H]4O)C[C@]3(C)NC)O[C@H]2C)O[C@@H](C)[C@@H]1OC [Saarvienin A, saarvienin A]	>64	>64	0.25 (≈ 0.166 µM)	0.25 (≈ 0.166 µM)	>64	>64
CN[C@H](CC(C)C)C(=O)N[C@H]1C(=O)N[C@@H](CC(N)=O)C(=O)N[C@H]2C(=O)N[C@H]3C(=O)N[C@H](C(=O)N[C@H](C(=O)O)c4cc(O)cc(O)c4-c4cc3ccc4O)[C@H](O)c3ccc(c(Cl)c3)Oc3cc2cc(c3O[C@@H]2O[C@H](CO)[C@@H](O)[C@H](O)[C@H]2O[C@H]2C[C@](C)(N)[C@H](O)[C@H](C)O2)Oc2ccc(cc2Cl)[C@H]1O [Vancomycin, vancomycin]	>64	>64	2 (≈ 1.38 µM)			>64
